Reference: paper PMC11784312, “Structural basis of different neutralization capabilities of monoclonal antibodies against H7N9 virus” (2024)

Target: recombinant SD008 HA ectodomain (influenza A virus A/chicken/Guangdong/SD008/2017 (H7N9))
Assay: cryo-EM structure

recombinant SD008 HA ectodomain (domain or fragment)
stoichiometry N: 3
